Experimental findings from paper PMC11617747 (Heliyon, 2024) are described below.

pKd: −log10 of the molar value. Construct, isoform or probe ends are uncertain for at least one entry. Tags and fusion partners may be left off the protein sequences shown.

This series has as its target T1, C-MabR (UniProt P9WPH5).
T1 sequence (looked up): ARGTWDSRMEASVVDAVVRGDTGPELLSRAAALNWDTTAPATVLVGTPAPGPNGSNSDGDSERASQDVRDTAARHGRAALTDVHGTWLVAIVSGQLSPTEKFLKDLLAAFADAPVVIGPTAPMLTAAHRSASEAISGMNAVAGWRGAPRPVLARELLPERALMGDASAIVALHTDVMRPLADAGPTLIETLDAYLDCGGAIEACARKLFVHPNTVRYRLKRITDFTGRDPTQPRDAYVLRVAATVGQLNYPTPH
Kind of series: TSA (isothermal analysis). Particulars: 49 C, room temperature 30 min, recombinant protein, residues 161-414, protein details: N-terminal 6xHis (pET28a).

The pKd is the Kd on a negative log10 scale, so that one unit is a factor of ten.

On to “GTTTTGTTGGTTATATACAAAAA (double strand) [23-bp FAS-II promoter dsDNA]”, for which the pKd is 5.52.
